Anti-infective test results gathered from many reports (values: NIAID ChemDB through PubChem).

All rows: cytotoxicity tests; cells: HFF; read-out: CC50

Blank or dashed fields: not listed here. Lines come from different laboratories, so protocols vary. CCn is the concentration with n% toxicity to the cells.

| structure | method | value |
|---|---|---|
| Nc1ncnc2c1ncn2[C@H]1C[C@H](O)[C@]2(CO)C[C@H]12 |  | >100 µg/mL |
| Nc1ncnc2c1ncn2/C=C1\[C@H](CO)C1(F)F |  | >100 µM |
| O=C(NCc1ccc(Cl)cc1)c1cn(N2CCOCC2)c2ccc(CN3CCOCC3)cc2c1=O |  | >50 µM |
| CCCCCCCCCCCCCCO[C@H]1O[C@H](COP(=O)(O)C(=O)O)[C@@H](O)[C@H](O)[C@H]1O |  | 426 µM |
| COC(=O)C(Cc1c[nH]c2ccccc12)NP(=O)(O)OCC1C/C1=C/n1cnc2c(N)ncnc21 |  | >100 µM |
| CC(C)Nc1nc2cc(Cl)c(Cl)cc2n1[C@H]1C[C@H](O)[C@@H](CO)O1 | visual reading | >100 µM |
| CCCCOc1nc(N)nc2c1ncn2/C=C1/C[C@@H]1CO | neutral red | >300 µM |
| CC(=O)NC(CCc1ccc(Cl)c(Cl)c1)c1cccc(O)c(=O)c1 | MTT | >100 µM |
| CCCCCCCC/C=C\CCCCCCCCOCCOP(=O)(O)CO[C@H](CO)Cn1ccc(N)nc1=O | neutral red | 56 µM |
| CCc1nc2c3c(cn([C@@H]4O[C@H](CO)[C@@H](O)[C@H]4O)c3n1)C(N)=NN2C | visual reading | >100 µM |
| CNc1nc2cc(Cl)c(Cl)cc2n1[C@@H]1O[C@@H](CO)[C@H](O)[C@H]1O | visual reading | >100 µM |
| COc1c(C=O)c2cc(Cl)c(Cl)cc2n1[C@@H]1O[C@H](CO)[C@@H](O)[C@H]1O |  | 32 µM |
| C=C(C)[C@@H]1CCc2c(O)c(O)c(=O)cc(C)c2C1 | MTT | >100 µM |
| CCCCCCCCCCCCCCCCCCCCOCCCOP(=O)(O)CO[C@H](CO)Cn1ccc(N)nc1=O | neutral red | 90.6 µM |
| C[C@@H]1O[C@@H](n2c(Cl)nc3cc(Cl)c(Cl)cc32)[C@H](O)[C@@H]1O | visual reading | 20 µM |
| CN(C)c1c(C#N)c2cc(Cl)c(Cl)cc2n1[C@@H]1O[C@H](CO)[C@@H](O)[C@H]1O |  | 100 µM |
| CC(=O)N1CCN(Cc2ccc(Oc3ccc(Cl)cc3O)s2)CC1 |  | >10 µM |
| NC[C@H]1C[C@@H](n2cnc3c(N)ncnc32)[C@H](O)[C@@H]1O |  | 3.1 µg/mL |
| Cn1c(=O)ccn(/C=C2/CC2(CO)CO)c1=O | visual reading | >100 µM |
| CCCOc1nc(N)nc2c1ncn2/C=C1/C[C@@H]1CO |  | >363 µM |
| Nc1nc2c(ncn2C=C2CC2CO)c(=O)[nH]1 | neutral red | >429 µM |
| Clc1ccc(Nc2ncnc3ccccc23)cc1Cl |  | 3 µM |
| CC(C)=CCc1ccc(O)c(=O)cc1C(C)C | neutral red | 6.7 µM |
| CC(C)Nc1nc2cc(Cl)c(Cl)cc2n1[C@@H]1O[C@@H](CO)[C@@H](O)[C@H]1O | visual reading | >100 µM |
| Cc1cn([C@@]23C[C@H](O)[C@@H](CO)[C@@H]2C3)c(=O)[nH]c1=O |  | >20 µg/mL |
| CNc1cc2c(=O)c(C(=O)O)cn(N(C)C)c2cc1N1CCN(c2ccccn2)CC1 | MTT | 270.1 µM |
| C=CCO[C@]1(C)C[C@@H](C)CN(C)[C@H](C)[C@@H](O)[C@](C)(O)[C@@H](CC)OC(=O)[C@H](C)[C@@H](O[C@H]2C[C@@](C)(OC)[C@@H](O)[C@H](C)O2)[C@H](C)[C@H]1O[C@@H]1O[C@H](C)C[C@H](N(C)C)[C@H]1O | MTS | 96 µM |
| Nc1nc(OCC2CC2)c2ncn(/C=C3/C[C@@H]3CO)c2n1 |  | >348 µM |
| Nc1ncnc2c1ncn2/C=C1/CC1(CO)CO | neutral red | >380 µM |
| CCOCn1cc(C(N)=S)c2c(N)ncnc21 | visual reading | 32 µM |
| CN(C)c1c(C=O)c2cc(Cl)c(Cl)cc2n1[C@@H]1O[C@H](CO)[C@@H](O)[C@H]1O |  | 32 µM |
| CCCCCCCC/C=C\CCCCCCCOCCCOP1(=O)CO[C@@H](Cn2ccc(N)nc2=O)CO1 | neutral red | 46 µM |
| CC(C)Sc1nc(N)nc2c1ncn2/C=C1/C[C@@H]1CO | neutral red | >300 µM |
| CCCCCCCCCCCCO[C@H]1O[C@H](COP(=O)(O)C(=O)O)[C@@H](O)[C@H](O)[C@H]1O |  | 770 µM |
| CCCOc1nc(N)nc2c1ncn2/C=C1/C[C@@H]1CO | neutral red | >300 µM |
| Nc1ncnc2c1ncn2Cc1c(F)cccc1Cl |  | 50 µg/mL |
| [N-]=[N+]=Nc1nc2cc(Cl)c(Cl)cc2n1[C@H]1C[C@H](O)[C@@H](CO)O1 | visual reading | 100 µM |
| CN1CCN(Cc2ccc(Oc3ccc(Cl)cc3O)cc2)CC1 |  | >10 µM |
| OC[C@H]1O[C@@H](n2c(Br)nc3cc(Cl)c(Cl)cc32)[C@H](O)[C@@H]1O |  | 118 µM |
| CCCCCOc1nc(N)nc2c1ncn2/C=C1/C[C@@H]1CO |  | 178 µM |
| CCCSc1nc(N)nc2c1ncn2/C=C1/C[C@@H]1CO | neutral red | >300 µM |
| O[C@@H]1[C@H](O)[C@H](O)CO[C@H]1n1c(Br)nc2cc(Cl)c(Cl)cc21 |  | 143 µM |
| CC(C)Nc1nc2cc(Cl)c(Cl)cc2n1[C@H]1O[C@@H](CO)[C@H](O)[C@@H]1O |  | >100 µM |
| O=C(O)c1cn(C2CC2)c2nc(N3CCN(c4nc5ccccc5s4)CC3)ccc2c1=O | MTT | 15.3 µM |
| CCCCCCCCCCCCCCO[C@@H]1O[C@H](COP(=O)(O)C(=O)O)[C@@H](O)[C@H](O)[C@H]1O |  | 649 µM |
| CN1N=C(N)c2cn([C@@H]3O[C@H](COP(=O)(O)O)[C@@H](O)[C@H]3O)c3ncnc1c23 | visual reading | 19 µM |
| CC(=O)O[C@H]1[C@H](n2c(Br)nc3cc(Cl)c(Cl)cc32)OC[C@H]1OC(C)=O |  | 59 µM |
| N#Cc1c(Cl)n([C@@H]2O[C@H](CO)[C@@H](O)[C@H]2O)c2cc(Cl)c(Cl)cc12 |  | 32 µM |
| CC(C)(C)OC(=O)N1CCN(C(=O)c2ccc(Oc3ccc(Cl)cc3O)s2)CC1 |  | >10 µM |
| Nc1nc(OCC2CC2)c2ncn(/C=C3/C[C@@H]3CO)c2n1 |  | >348 µM |
| Nc1nc2c(ncn2/C=C2\CC2(CO)COP(=O)(O)O)c(=O)[nH]1 | neutral red | >392 µM |
| CCCCCCCCCCCCCCCCCCOCCCOP1(=O)CO[C@@H](Cn2ccc(N)nc2=O)CO1 | neutral red | 77 µM |
| Nc1cc2c(=O)c(C(=O)O)cn(N)c2cc1N1CCN(c2ccccn2)CC1 | MTT | 127.5 µM |
| CCCCCCCCCCCCCCCCCCO[C@H]1O[C@H](COP(=O)(O)C(=O)O)[C@@H](O)[C@H](O)[C@H]1O |  | 166 µM |
| O=S(=O)(c1ccc(Oc2ccc(Cl)cc2O)cc1)N1CCCCC1 |  | >10 µM |
| O=c1ccn([C@@]23C[C@H](O)[C@@H](CO)[C@@H]2C3)c(=O)[nH]1 |  | >100 µg/mL |
| Nc1nc(OCc2ccccc2)c2ncn(/C=C3/C[C@@H]3CO)c2n1 | neutral red | >300 µM |
| Cc1nc2c3c(cn([C@@H]4O[C@H](CO)[C@@H](O)[C@H]4O)c3n1)C(N)=NN2C | visual reading | >100 µM |
| CC(C)[C@H](N)C(=O)OCC(COC(=O)[C@@H](N)C(C)C)OCn1cnc2c(=O)[nH]c(N)nc21 |  | ≥147 µM |
| CCCCCOc1nc(N)nc2c1ncn2/C=C1/C[C@@H]1CO |  | 178 µM |
| Oc1cc(Cl)ccc1Oc1ccc2ncccc2c1 |  | >10 µM |
| Nc1ncnc2c1ncn2/C=C1\[C@H](CO)C1(F)F |  | >100 µM |
| Nc1nc2c(ncn2COCCO)c(=O)[nH]1 |  | >444 µM |
| OC[C@H]1O[C@@H](n2c(Cl)nc3cc(Cl)c(Cl)cc32)[C@H](O)[C@@H]1O | visual reading | 238 µM |
| CCCCCCCCCCCCCCCCOCCCOP(=O)(O)CO[C@H](CO)Cn1ccc(N)nc1=O | neutral red | 31 µM |
| C[C@@H]1O[C@@H](n2c(Br)nc3cc(Cl)c(Cl)cc32)[C@H](O)[C@@H]1O | visual reading | >100 µM |
| CC(C)[C@H](NC(=O)CN)C(=O)OCC(COC(=O)[C@@H](NC(=O)CN)C(C)C)OCn1cnc2c(=O)[nH]c(N)nc21 |  | ≥126 µM |
| Nc1ncc(I)c2c1ncn2[C@@H]1C[C@H](O)[C@@H](O)[C@H]1O |  | 219 µM |
| CCCCNc1c(C#N)c2cc(Cl)c(Cl)cc2n1[C@@H]1O[C@H](CO)[C@@H](O)[C@H]1O |  | 32 µM |
| Nc1nc(NC2CC2)c2ncn(/C=C3/C[C@@H]3CO)c2n1 |  | >367 µM |
| O[C@@H]1[C@H](O)CO[C@H]1n1c(Br)nc2cc(Cl)c(Cl)cc21 |  | 32 µM |
| CSc1nc2cc(Cl)c(Cl)cc2n1[C@H]1C[C@H](O)[C@@H](CO)O1 | visual reading | >100 µM |
| Nc1ncnc2c1ncn2[C@@H]1C[C@H](NC=O)[C@@H](O)[C@H]1O |  | >100 µg/mL |
| OC[C@@H]1O[C@@H](n2c(NC3CCCCCC3)nc3cc(Cl)c(Cl)cc32)[C@H](O)[C@H]1O | visual reading | 21 µM |
| CCOc1nc(N)nc2c1ncn2/C=C1/C[C@@H]1CO | neutral red | >300 µM |

9 of the rows above, restated:

Cc1nc2c3c(cn([C@@H]4O[C@H](CO)[C@@H](O)[C@H]4O)c3n1)C(N)=NN2C ; method: visual reading ; value: >100 µM
CCCCCCCCCCCCCCCCCCOCCCOP1(=O)CO[C@@H](Cn2ccc(N)nc2=O)CO1 ; method: neutral red ; value: 77 µM
CCOc1nc(N)nc2c1ncn2/C=C1/C[C@@H]1CO ; method: neutral red ; value: >300 µM
Nc1nc(OCc2ccccc2)c2ncn(/C=C3/C[C@@H]3CO)c2n1 ; method: neutral red ; value: >300 µM
CCCCCCCCCCCCCCO[C@@H]1O[C@H](COP(=O)(O)C(=O)O)[C@@H](O)[C@H](O)[C@H]1O ; value: 649 µM
NC[C@H]1C[C@@H](n2cnc3c(N)ncnc32)[C@H](O)[C@@H]1O ; value: 3.1 µg/mL
Cc1cn([C@@]23C[C@H](O)[C@@H](CO)[C@@H]2C3)c(=O)[nH]c1=O ; value: >20 µg/mL
Nc1ncnc2c1ncn2Cc1c(F)cccc1Cl ; value: 50 µg/mL
COc1c(C=O)c2cc(Cl)c(Cl)cc2n1[C@@H]1O[C@H](CO)[C@@H](O)[C@H]1O ; value: 32 µM